Measurements published in article PMC3774798 (PLoS ONE, 2013).

How the values were obtained:
[1] = tested on: Nc1nc2c(ncn2[C@@H]2O[C@H](COP(=O)(O)O[C@H]3[C@@H](O)[C@H](n4cnc5c(=O)[nH]c(N)nc54)O[C@@H]3COP(=O)(O)O)[C@@H](O)[C@H]2O)c(=O)[nH]1; assay: purified protein; settings: protein phosphorylated with acetyl phosphate (extent unknown), pH 8, 30 °C, Mg2+ and/or Mn2+
[2] = tested on: Nc1nc2c(ncn2[C@@H]2O[C@@H]3CO[P@](=O)(O)O[C@H]4[C@@H](O)[C@H](n5cnc6c(=O)[nH]c(N)nc65)O[C@@H]4CO[P@](=O)(O)O[C@H]3[C@H]2O)c(=O)[nH]1; assay: purified protein; settings: protein phosphorylated with acetyl phosphate (extent unknown), 10 mM MgCl2, pH 8, 30 °C

PA4781 (Pseudomonas aeruginosa PAO1; E314A)
Km [1]: 17 ± 8 µM | kcat [1]: 2.0±0.3x10^-4 s^-1 | Km [2]: 6.8 ± 2 µM | kcat [2]: 0.0006 s⁻¹
